Measured values from several laboratories, pooled; numbers as filed in NIAID ChemDB.

All rows: host cell toxicity; cell line: MT-2; read by: MTT; read-out: CC50

Lines come from different laboratories, so protocols vary. CCn is the concentration with n% toxicity to the cells.

compound,value
O=C(CCc1ccccc1)[Se]c1ccccc1,34.7 µM
CCCCCCCCCCCCCCCCCCOCCCOP(=O)(O)C(=O)O,162 µM
CC(C)CN(C[C@@H](O)[C@H](Cc1ccccc1)NC(=O)O[C@H]1CO[C@H]2OCC[C@H]21)S(=O)(=O)c1ccc2c(c1)OCO2,35.7 µM
CC(C)CN(C[C@@H](O)[C@H](Cc1ccc(F)cc1)NC(=O)O[C@H]1CCO[C@H]2OCC[C@H]21)S(=O)(=O)c1ccc2nc(NC(C)C)sc2c1,2.7 µM
C[C@@H]1CN2CCC[C@@H]3CCCCC[C@@H]4C(=O)[C@@H](C)CN5CCC[C@@H](CCCCC[C@@H](C1=O)[C@H]32)[C@H]45,371 µM
CCCCCCCCCCCCCCCCCCOC[C@H](CO)OC,335 µM
CCCc1c([Se]c2ccccc2)n(COCc2ccccc2)c(=O)[nH]c1=O,>51.15 µM
COc1ccc(S(=O)(=O)N(CC(C)C)C[C@@H](O)[C@H](Cc2ccc(F)cc2)NC(=O)O[C@H]2CCO[C@H]3OCC[C@H]32)cc1,24 µM
CC(C)CN(C[C@@H](O)[C@H](Cc1cc(F)cc(F)c1)NC(=O)O[C@H]1CCO[C@H]2OCC[C@H]21)S(=O)(=O)c1ccc2nc(NC(C)C)sc2c1,2.7 µM
CC(C)(N)C(=O)O.[Na+],77.35 µM
CC(C)CN(C[C@@H](O)[C@H](Cc1ccccc1)NC(=O)O[C@H]1CCOC1)S(=O)(=O)c1ccc(N)cc1,60.5 µM
CC(C)CN(C[C@@H](O)[C@H](Cc1ccccc1)NC(=O)O[C@@H]1[C@@H]2CCCO[C@@H]2O[C@H]1C)S(=O)(=O)c1ccc(N)cc1,30.3 µM
O=C(/C=C/C=C/c1ccc(O)c(O)c1)[Se]c1ccccc1,31.9 µM
CC[C@H](C)[C@H]1NC(=O)[C@@H](NC(=O)[C@@H](CC(C)C)NC)[C@@H](C)OC(=O)[C@H](Cc2ccc(OC)cc2)N(C)C(=O)[C@@H]2CCCN2C(=O)[C@H](CC(C)C)NC(=O)C(C)(C)NC(=O)C[C@@H]1O,>57.33 µM
COc1ccc(S(=O)(=O)N(CC(C)C)C[C@@H](O)[C@H](Cc2cc(F)cc(F)c2)NC(=O)O[C@H]2CO[C@H]3OCC[C@H]32)cc1,29.5 µM
O=C(NC(=S)Nc1ccc(Br)cn1)c1ccccc1[N+](=O)[O-],86.6 µM
Cc1ccc(/C=C/C=C/C(=O)[Se]c2ccccc2)cc1,32.9 µM
CC[C@H](C)[C@H]1NC(=O)[C@@H](NC(=O)OC(C)(C)C)[C@@H](C)OC(=O)[C@H](Cc2ccc(OC)cc2)N(C)C(=O)[C@@H]2CCCN2C(=O)[C@H](CC(C)C)NC(=O)C(C)(C)NC(=O)C[C@@H]1O,>59.17 µM
COc1ccc(S(=O)(=O)N(CC(C)C)C[C@@H](O)[C@H](Cc2ccccc2)NC(=O)O[C@H]2CO[C@@H]3O[C@H]4OCC[C@H]4[C@@H]32)cc1,38.7 µM
CCCCCCCCCCCCCCCCCCOC[C@@H](COP(=O)(O)C(=O)O)OCCCCCCCC,1102 µM
CC(C)(C)NC(=O)[C@@H]1C[C@@H]2CCCC[C@@H]2CN1C[C@@H](OC(=O)C(CS)NC(=O)CCONC(=O)CCCCC1SCC2NC(=O)NC21)[C@H](Cc1ccccc1)NC(=O)[C@H](CC(N)=O)NC(=O)c1ccc2ccccc2n1,15 µM
COC(=O)N[C@H](C(=O)N[C@@H](Cc1ccccc1)[C@@H](O)CN(Cc1ccc(-c2ccccn2)cc1)NC(=O)[C@@H](NC(=O)OC)C(C)(C)C)C(C)(C)C,26.7 µM
O=c1c2ccccc2[se]n1-c1ccccc1,>20 µg/mL
CC1=CC2=C(C(C)C)C(O)C(=O)/C(=C\N[C@H](C)C(=O)O)C2C(O)=C1c1c(C)cc2c(C(C)C)c(O)c(O)c(C=N[C@@H](C)C(=O)O)c2c1O.[Na+].[Na+],84.64 µM
Cc1c(O)cccc1C(=O)N[C@@H](CSc1ccccc1)[C@H](O)CN1C[C@H]2CCCC[C@H]2C[C@H]1C(=O)NC(C)(C)C,11.1 µM
CC1=CC2=C(C(C)C)C(O)C(=O)/C(=C\N[C@H](CC(C)C)C(=O)O)C2C(O)=C1c1c(C)cc2c(C(C)C)c(O)c(O)c(C=N[C@@H](CC(C)C)C(=O)O)c2c1O.[Na+].[Na+],59.17 µM
C[C@@H]1O[C@@H]2OCCC[C@@H]2[C@@H]1OC(=O)N[C@@H](Cc1ccccc1)[C@H](O)CN1C[C@H]2CCCC[C@H]2C[C@H]1C(=O)NC(C)(C)C,32.9 µM
O=C1CCc2ccccc2[Se]1,>100 µM
CC[C@H](C)[C@H]1NC(=O)[C@@H](NC(=O)[C@H](CC(C)C)N(C)C(=O)[C@@H]2CCCN2C(=O)C(C)=O)[C@@H](C)OC(=O)[C@H](Cc2ccc(OC)cc2)N(C)C(=O)[C@@H]2CCCN2C(=O)[C@H](CC(C)C)NC(=O)[C@@H](C)C(=O)[C@H](C(C)C)OC(=O)C[C@@H]1O,>45.03 µM
CCCCCCCCCCCCCCCCCCOC[C@@H](COP(=O)(O)C(=O)O)OCCCCCCCCCCCC,834 µM
CC(C)C[C@H](N)C(=O)O.[Na+],59.17 µM
COc1cc(/C=C/C(=O)[Se]c2ccccc2)ccc1O,35.1 µM
CC[C@H](C)[C@H]1NC(=O)[C@@H](NC(=O)[C@@H](C)N(C)C(=O)OCc2ccccc2)[C@@H](C)OC(=O)[C@H](Cc2ccc(OC)cc2)N(C)C(=O)[C@@H]2CCCN2C(=O)[C@H](CC(C)C)NC(=O)[C@@H](C)C(=O)[C@H](C(C)C)OC(=O)C[C@@H]1O,>48.3 µM
O=c1ccc2ccccc2[se]1,>100 µM
Nc1nc2c(c(=O)[nH]1)N=CC2[C@H]1C=C[C@@H](CO)O1,>100 µM
CCCCCCCCCCCCCCCCCCOC[C@H](COP(=O)(O)C(=O)O)OCC,743 µM
COc1ccc(/C=C/C=C/C(=O)[Se]c2ccccc2)cc1,28.5 µM

The last 3 rows once more:

compound	value
Nc1nc2c(c(=O)[nH]1)N=CC2[C@H]1C=C[C@@H](CO)O1	>100 µM
CCCCCCCCCCCCCCCCCCOC[C@H](COP(=O)(O)C(=O)O)OCC	743 µM
COc1ccc(/C=C/C=C/C(=O)[Se]c2ccccc2)cc1	28.5 µM